Data taken from BindingDB's records for 39691526.

Amino acid sequences for entries named in this document (tags omitted). Residues count along the entry.
UniProt P22303, 32-614 limits assumed: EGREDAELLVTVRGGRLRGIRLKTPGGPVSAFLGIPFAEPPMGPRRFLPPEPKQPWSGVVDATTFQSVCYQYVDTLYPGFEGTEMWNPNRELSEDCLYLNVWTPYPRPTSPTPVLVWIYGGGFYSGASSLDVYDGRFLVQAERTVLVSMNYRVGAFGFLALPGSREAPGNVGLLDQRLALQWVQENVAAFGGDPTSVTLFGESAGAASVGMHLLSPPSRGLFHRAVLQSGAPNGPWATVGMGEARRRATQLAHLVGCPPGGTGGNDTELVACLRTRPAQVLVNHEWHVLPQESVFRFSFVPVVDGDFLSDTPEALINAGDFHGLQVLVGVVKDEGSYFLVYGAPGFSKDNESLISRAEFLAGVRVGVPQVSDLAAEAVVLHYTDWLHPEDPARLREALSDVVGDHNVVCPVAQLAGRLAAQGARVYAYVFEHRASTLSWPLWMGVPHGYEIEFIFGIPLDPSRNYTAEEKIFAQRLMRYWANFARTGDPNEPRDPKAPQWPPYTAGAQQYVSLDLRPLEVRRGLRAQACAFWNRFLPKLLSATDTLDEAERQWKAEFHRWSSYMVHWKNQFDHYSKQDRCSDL
UniProt P06276, 29-602 limits assumed: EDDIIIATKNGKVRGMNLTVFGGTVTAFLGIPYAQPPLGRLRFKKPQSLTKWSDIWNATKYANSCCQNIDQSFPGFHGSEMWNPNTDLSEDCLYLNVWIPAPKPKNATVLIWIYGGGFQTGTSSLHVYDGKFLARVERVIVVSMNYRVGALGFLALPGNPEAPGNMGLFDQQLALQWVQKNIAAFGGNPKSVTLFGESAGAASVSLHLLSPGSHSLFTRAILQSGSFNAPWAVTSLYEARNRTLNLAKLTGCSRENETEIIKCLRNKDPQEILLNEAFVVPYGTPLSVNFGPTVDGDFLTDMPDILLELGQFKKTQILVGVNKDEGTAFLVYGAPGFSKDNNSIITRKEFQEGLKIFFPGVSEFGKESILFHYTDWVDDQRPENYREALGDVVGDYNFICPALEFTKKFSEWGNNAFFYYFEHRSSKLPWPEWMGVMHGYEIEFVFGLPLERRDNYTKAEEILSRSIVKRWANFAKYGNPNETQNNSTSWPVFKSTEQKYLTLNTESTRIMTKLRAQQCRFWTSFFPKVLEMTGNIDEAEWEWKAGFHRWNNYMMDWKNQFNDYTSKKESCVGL

Assays:
[1] = biological target: Acetylcholinesterase (Homo sapiens, UniProt P22303); test: Inhibition of human recombinant AChE using acetylthiocholine iodide as substrate by Ellman's method
[2] = biological target: Cholinesterase (Homo sapiens, UniProt P06276); test: Inhibition of human recombinant BChE using butyrylcholine iodide as substrate by Ellman's method

## C[n+]1cc(Cl)ccc1/C=N/O
[1]
  IC50: 133 µM
[2]
  IC50: > 800 µM

## C[n+]1cc(F)ccc1/C=N/O
[1]
  IC50: 277 µM
[2]
  IC50: > 800 µM

## C[n+]1cccc(F)c1/C=N/O
[1]
  IC50: 522 µM
[2]
  IC50: > 600 µM

## C[n+]1cccc(Br)c1/C=N/O
[1]
  IC50: 385 µM
[2]
  IC50: > 800 µM

## C[n+]1cccc(Cl)c1/C=N/O
[1]
  IC50: 450 µM
[2]
  IC50: > 800 µM

## C[n+]1cc(Br)ccc1/C=N/O
[2]
  IC50: > 800 µM
